PubChem BioAssay AID1259414, Drosophila RNAi Screening Center | 2018
The screen tested about 24,000 reagents; shown is a random part of those that have a named target and a result. In the full data, about 1,210 (5%) are marked active. 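Inactive calls also include excluded dsRNAs with several or no targets, genes unexpressed in JW18, and well A1, regardless of score.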 No sequences are given here.

Test: 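Genome-wide screen for host control of endosymbiont load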 (primary screen)
System: Drosophila JW18 cells infected with Wolbachia
Reagent: long dsRNA against Drosophila genes, 0.25 µg dsRNA per well of a 384-well plate
Duration: 5 days
Challenge: cells persistently infected with Wolbachia before knock-down; no added drug
Read-out: 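Automated imaging of bacterial rRNA staining divided by host cell count, reported as plate-normalised robust z-score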
Direction: Wolbachia per cell robust z: higher = more Wolbachia per host cell than the plate typical
Call rule: 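Active if absolute robust z reaches 1.5 in two or more of three replicates, leaving out multi- or no-target dsRNAs, genes unexpressed in JW18 and A1 wells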

Gene | dsRNA | Wolbachia per cell robust z, rep 1 | Wolbachia per cell robust z, rep 2 | Wolbachia per cell robust z, rep 3 | outcome
CG18493 | DRSC15334 | 1.56 | -1.23 | 0.355 | inactive
CG7512 | DRSC10863 | -2.27 | 0.194 | 0.184 | inactive
Nak | DRSC03379 | 0.0387 | 0.0757 | -1.23 | inactive
Nak | DRSC27565 | -1.14 | -2.94 | -0.683 | inactive
f | DRSC19174 | 0.674 | 0.253 | 0.812 | inactive
f | DRSC19516 | -0.805 | -1.95 | -0.0097 | inactive
f | DRSC20331 | -0.45 | 0.813 | 0.349 | inactive
f | DRSC25251 | 0.176 | -0.647 | -0.736 | inactive
f | DRSC28735 | 0.0883 | 0.717 | 0.346 | inactive
CG42359 | DRSC40570 | -0.0378 | 1.54 | 1.1 | inactive
TTLL6B | DRSC15932 | -0.321 | 0.867 | 0.723 | inactive
TTLL6B | DRSC26754 | 0.79 | 0.407 | 1.39 | inactive
CG12768 | DRSC23215 | -0.0112 | 0.93 | -0.958 | inactive
CG12768 | DRSC28549 | 0.874 | 0.494 | 1.54 | inactive
Rca1 | DRSC03407 | 2.69 | 4.54 | 5.7 | active
CG34043 | DRSC37773 | 1.64 | -0.54 | 1.97 | inactive
CG12608 | DRSC19472 | -2.5 | 0.605 | 0.117 | inactive
CG9920 | DRSC16578 | -0.393 | -0.945 | -0.351 | inactive
IP3K2 | DRSC19500 | -3.37 | -1.81 | -1.31 | inactive
IP3K2 | DRSC19711 | 0 | -0.51 | -2.38 | inactive
IP3K2 | DRSC19747 | -1.02 | 0.37 | -0.546 | inactive
IP3K2 | DRSC22614 | 0.655 | 0.532 | 0.113 | inactive
IP3K2 | DRSC24796 | 0.959 | 0.819 | 0.257 | inactive
IP3K2 | DRSC27191 | 0.89 | 1.3 | -0.291 | inactive
Flo1 | DRSC07427 | 0.874 | 0.761 | 0.127 | inactive
Flo1 | DRSC28122 | 0.0631 | -1.59 | 0.781 | inactive
CG18258 | DRSC19798 | -1.99 | 0.212 | -3.75 | inactive
CG18258 | DRSC29203 | -0.138 | 0.27 | -0.318 | inactive

Records above marked active:
Gene | dsRNA | Wolbachia per cell robust z, rep 1 | Wolbachia per cell robust z, rep 2 | Wolbachia per cell robust z, rep 3 | outcome
Rca1 | DRSC03407 | 2.69 | 4.54 | 5.7 | active
